Source: patent publication US20140243348A1, “COMPOSITIONS AND METHODS FOR TREATING HERPES VIRUSES” (President and Fellows of Harvard College, priority 2011, published 2014)
The exact form of at least one protein or probe is not confirmed.

Sequences of proteins named here, by UniProt entry; tags and fusion partners are left off. A change or cut given only in a name is not applied to a line headed by its entry.
UniProt P17470: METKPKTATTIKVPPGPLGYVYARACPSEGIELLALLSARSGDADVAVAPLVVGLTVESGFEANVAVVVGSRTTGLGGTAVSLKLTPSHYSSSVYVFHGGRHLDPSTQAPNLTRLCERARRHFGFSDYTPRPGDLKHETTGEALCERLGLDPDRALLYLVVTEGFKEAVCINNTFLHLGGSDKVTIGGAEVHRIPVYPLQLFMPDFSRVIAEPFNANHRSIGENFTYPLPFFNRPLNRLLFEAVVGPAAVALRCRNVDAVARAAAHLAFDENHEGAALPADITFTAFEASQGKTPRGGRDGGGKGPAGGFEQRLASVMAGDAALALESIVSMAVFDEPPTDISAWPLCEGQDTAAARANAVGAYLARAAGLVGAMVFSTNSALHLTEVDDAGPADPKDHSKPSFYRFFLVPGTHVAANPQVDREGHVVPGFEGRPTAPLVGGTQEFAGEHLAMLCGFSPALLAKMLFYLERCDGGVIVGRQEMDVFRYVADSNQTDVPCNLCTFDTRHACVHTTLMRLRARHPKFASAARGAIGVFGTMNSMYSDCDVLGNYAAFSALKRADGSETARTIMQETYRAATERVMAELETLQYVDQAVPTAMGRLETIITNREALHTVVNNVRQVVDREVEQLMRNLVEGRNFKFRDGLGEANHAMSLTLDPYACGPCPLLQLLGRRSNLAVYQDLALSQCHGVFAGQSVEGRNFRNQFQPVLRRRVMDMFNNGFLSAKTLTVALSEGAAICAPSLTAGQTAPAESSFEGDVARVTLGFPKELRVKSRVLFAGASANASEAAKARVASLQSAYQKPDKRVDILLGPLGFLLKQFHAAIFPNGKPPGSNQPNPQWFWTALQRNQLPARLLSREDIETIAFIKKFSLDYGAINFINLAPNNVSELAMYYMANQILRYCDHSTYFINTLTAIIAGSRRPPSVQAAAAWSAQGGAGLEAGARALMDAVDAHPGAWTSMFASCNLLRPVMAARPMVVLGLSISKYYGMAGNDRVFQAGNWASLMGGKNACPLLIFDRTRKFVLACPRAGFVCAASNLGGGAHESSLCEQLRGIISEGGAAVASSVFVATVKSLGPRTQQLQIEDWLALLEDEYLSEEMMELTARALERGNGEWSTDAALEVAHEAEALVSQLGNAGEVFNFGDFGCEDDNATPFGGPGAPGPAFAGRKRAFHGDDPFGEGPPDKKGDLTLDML

Target: ICP8 (wild type) (Herpes simplex virus 1 (strain KOS)) (UniProt P17470)
Assay: EMSA
Settings: 40 fmol DNA; 5% native polyacrylamide gel; purified recombinant protein; label: radiolabeled; single-stranded DNA

Does TTTTTTTTTTTTTTTTTTTTTTTTT [oligo(dT)25] bind?
Result: binds
